Laboratory results reported in patent US20220089698A1, “ANTIBODIES THAT TARGET HIV GP120 AND METHODS OF USE” (published 2022).

B1: Antibody 1.1.110-1 (antibody, human IgG1, kappa)
heavy: QVQLLQSGAAVTKPGASVRVSCEASGYNIRDYFIHWWRQAPGQGLQWVGWINPKTGQPNNPRQFQGRVSLTRHASWDFDTFSFYMDLKALRSDDTAVYFCARQRSDYWDFDVWGSGTQVTVSSASTKGPSVFPLAPSSKSTSGGTAALGCLVKDYFPEPVTVSWNSGALTSGVHTFPAVLQSSGLYSLSSVVTVPSSSLGTQTYICNVNHKPSNTKVDKKVEPKSCDKTHTCPPCPAPELLAGPDVFLFPPKPKDTLMISRTPEVTCVVVDVSHEDPEVKFNWYVDGVEVHNAKTKPREEQYNSTYRVVSVLTVLHQDWLNGKEYKCKVSNKALPLPEEKTISKAKGQPREPQVYTLPPSREEMTKNQVSLTCLVKGFYPSDIAVEWESNGQPENNYKTTPPVLDSDGSFFLYSKLTVDKSRWQQGNVFSCSVLHEALHSHYTQKSLSLSPGK
light: not shown
B2: Antibody 1.1.111-1 (antibody, human IgG1, kappa)
heavy: B1 heavy
light: not shown

Key:
Assay in all cases: cell-based or functional assay
[1] = biological target: HIV-1 envelope glycoprotein gp120 of virus BaL (HIV-1)
[2] = biological target: HIV-1 envelope glycoprotein gp120 of virus 92US727 (HIV-1)
[3] = biological target: HIV-1 envelope glycoprotein gp120 of virus 92HT593 (HIV-1)
[4] = biological target: HIV-1 envelope glycoprotein gp120 of virus 92US657 (HIV-1)
[5] = biological target: HIV-1 envelope glycoprotein gp120 of virus 92US712 (HIV-1)
[6] = biological target: HIV-1 envelope glycoprotein gp120 of virus 7467 (HIV-1)
[7] = biological target: HIV-1 envelope glycoprotein gp120 of virus CH058 (HIV-1)
[8] = biological target: HIV-1 envelope glycoprotein gp120 of virus 7015 (HIV-1)
[9] = biological target: HIV-1 envelope glycoprotein gp120 of virus RHPA (HIV-1)
[10] = biological target: HIV-1 envelope glycoprotein gp120 of virus 1489 (HIV-1)
[11] = biological target: HIV-1 envelope glycoprotein of virus WITO (HIV-1)
[12] = biological target: HIV-1 envelope glycoprotein gp120 of virus 8176 (HIV-1)
[13] = biological target: HIV-1 envelope glycoprotein gp120 of virus 8318 (HIV-1)
[14] = biological target: HIV-1 envelope glycoprotein gp120 of virus 7576 (HIV-1)
[15] = biological target: HIV-1 envelope glycoprotein gp120 of virus 8339 (HIV-1)
[16] = biological target: HIV-1 envelope glycoprotein gp120 of virus 7051 (HIV-1)
[17] = biological target: HIV-1 envelope glycoprotein gp120 of virus 8089 (HIV-1)
[18] = biological target: HIV-1 envelope glycoprotein gp120 of virus 8106 (HIV-1)
[19] = biological target: HIV-1 envelope glycoprotein gp120 of virus 8359 (HIV-1)
[20] = biological target: HIV-1 envelope glycoprotein gp120 of virus 8117 (HIV-1)
[21] = biological target: HIV-1 envelope glycoprotein gp120 of virus CH077 (HIV-1)
[22] = biological target: HIV-1 envelope glycoprotein gp120 of virus CH106 (HIV-1)
[23] = biological target: HIV-1 envelope glycoprotein gp120 of virus REJO (HIV-1)
[24] = biological target: HIV-1 envelope glycoprotein gp120 of virus THRO (HIV-1)
[25] = biological target: HIV-1 envelope glycoprotein gp120 of virus 1413 (HIV-1)
[26] = biological target: HIV-1 envelope glycoprotein gp120 of virus 8320 (HIV-1)
[27] = biological target: HIV-1 envelope glycoprotein gp120 of virus 7103 (HIV-1)
[28] = biological target: HIV-1 envelope glycoprotein gp120 of virus 8134 (HIV-1)
[29] = biological target: HIV-1 envelope glycoprotein gp120 of virus 7141 (HIV-1)
[30] = biological target: HIV-1 envelope glycoprotein gp120 of virus 8110 (HIV-1)
[31] = biological target: HIV-1 envelope glycoprotein gp120 of virus 7714 (HIV-1)
[32] = biological target: HIV-1 envelope glycoprotein gp120 of virus 1003 (HIV-1)
[33] = biological target: HIV-1 envelope glycoprotein gp120 of virus 7595 (HIV-1)
[34] = biological target: HIV-1 envelope glycoprotein gp120 of virus 8398 (HIV-1)
[35] = biological target: HIV-1 envelope glycoprotein gp120 of virus 7552 (HIV-1)
[36] = biological target: HIV-1 envelope glycoprotein gp120 of virus 7007 (HIV-1)
[37] = biological target: HIV-1 envelope glycoprotein gp120 of virus 7596 (HIV-1)
[38] = biological target: HIV-1 envelope glycoprotein gp120 of virus CH040 (HIV-1)
[39] = biological target: HIV-1 envelope glycoprotein gp120 of virus 7352 (HIV-1)
[40] = biological target: HIV-1 envelope glycoprotein gp120 of virus 1012 (HIV-1)

| Binder | HIV Neutralization Potency [1] [µg/mL] | HIV Neutralization Potency [2] [µg/mL] | HIV Neutralization Potency [3] [µg/mL] | HIV Neutralization Potency [4] [µg/mL] | HIV Neutralization Potency [5] [µg/mL] | HIV Neutralization Potency [6] [µg/mL] | HIV Neutralization Potency [7] [µg/mL] | HIV Neutralization Potency [8] [µg/mL] | HIV Neutralization Potency [9] [µg/mL] | HIV Neutralization Potency [10] [µg/mL] | HIV Neutralization Potency [11] [µg/mL] | HIV Neutralization Potency [12] [µg/mL] | HIV Neutralization Potency [13] [µg/mL] | HIV Neutralization Potency [14] [µg/mL] | HIV Neutralization Potency [15] [µg/mL] | HIV Neutralization Potency [16] [µg/mL] | HIV Neutralization Potency [17] [µg/mL] | HIV Neutralization Potency [18] [µg/mL] | HIV Neutralization Potency [19] [µg/mL] | HIV Neutralization Potency [20] [µg/mL] | further results |
| --- | --- | --- | --- | --- | --- | --- | --- | --- | --- | --- | --- | --- | --- | --- | --- | --- | --- | --- | --- | --- | --- |
| B1 | 0.11 | > 50 | 0.5 | 0.69 | 0.06 | 0.03 | 0.04 | 0.77 | 0.2 | 0.08 | 0.08 | 0.18 | 0.23 | 0.5 | > 50 | 0.25 | 1.3 | 0.61 | 0.35 | 1.35 | HIV Neutralization Potency [21]: 0.03 µg/mL; HIV Neutralization Potency [22]: 1.33 µg/mL; HIV Neutralization Potency [23]: 0.03 µg/mL; HIV Neutralization Potency [24]: 6.77 µg/mL; HIV Neutralization Potency [25]: 3.69 µg/mL; HIV Neutralization Potency [26]: 0.26 µg/mL; HIV Neutralization Potency [27]: 1 µg/mL; HIV Neutralization Potency [28]: 1.29 µg/mL; HIV Neutralization Potency [29]: > 50 µg/mL; HIV Neutralization Potency [30]: 3.85 µg/mL; HIV Neutralization Potency [31]: 2.65 µg/mL; HIV Neutralization Potency [32]: 1.35 µg/mL; HIV Neutralization Potency [33]: 3.97 µg/mL; HIV Neutralization Potency [34]: > 50 µg/mL; HIV Neutralization Potency [35]: > 50 µg/mL; HIV Neutralization Potency [36]: > 50 µg/mL; HIV Neutralization Potency [37]: 14.9 µg/mL; HIV Neutralization Potency [38]: 6.86 µg/mL; HIV Neutralization Potency [39]: > 50 µg/mL; HIV Neutralization Potency [40]: 1.65 µg/mL |
| B2 | 0.13 | 35.2 | 0.52 | 0.79 | 0.06 | 0.04 | 0.04 | 0.73 | 0.16 | 0.1 | 0.06 | 0.19 | 0.19 | 0.32 | > 50 | 0.19 | 0.6 | 0.61 | 0.41 | 1.09 | HIV Neutralization Potency [21]: 0.05 µg/mL; HIV Neutralization Potency [22]: 1.42 µg/mL; HIV Neutralization Potency [23]: 0.05 µg/mL; HIV Neutralization Potency [24]: 6.2 µg/mL; HIV Neutralization Potency [25]: 2.79 µg/mL; HIV Neutralization Potency [26]: 0.25 µg/mL; HIV Neutralization Potency [27]: 0.69 µg/mL; HIV Neutralization Potency [28]: 0.87 µg/mL; HIV Neutralization Potency [29]: 27.1 µg/mL; HIV Neutralization Potency [30]: 2.19 µg/mL; HIV Neutralization Potency [31]: 3.78 µg/mL; HIV Neutralization Potency [32]: 1.17 µg/mL; HIV Neutralization Potency [33]: 3.59 µg/mL; HIV Neutralization Potency [34]: > 50 µg/mL; HIV Neutralization Potency [35]: > 50 µg/mL; HIV Neutralization Potency [36]: > 50 µg/mL; HIV Neutralization Potency [37]: 11.6 µg/mL; HIV Neutralization Potency [38]: 16.1 µg/mL; HIV Neutralization Potency [39]: > 50 µg/mL; HIV Neutralization Potency [40]: 1.43 µg/mL |
